The results in this text go back to PubChem BioAssay AID841 (Emory University Molecular Libraries Screening Center, 2007).

The structures appear in SMILES notation. This is a selection; strong and weak results do not stand in their true shares. The source made the active and inactive calls. Cut-off read from the data, not from the text of the source: active = protection mostly above about 24% (no sharp cut-off); inactive = mostly below about 26%.

A short description of this test: compounds protecting cells from measles virus cytopathic effect, primary screen, measles RdRp inhibitor project, single point, MLSMR library, absorbance (AID 841). The conditions noted are these: Measles virus-infected cells, CPE protection, at 4 µM, stronger effect = higher value. On the technique in general: Protection from cytopathic effect is a common read-out in antiviral testing.
With `O=C(OC1CN2CCC1CC2)C1c2ccccc2Oc2ccccc21` (stereo not drawn), the protection (pct of control) is inactive: 5.69%.

With `O=C(NCC1(N2CCOCC2)CCCCC1)c1cc2ccccc2o1`, the protection (pct of control) was inactive: 1.25%.

For the compound `COc1ccc(NC2CCN(CCc3ccccc3)CC2)c(OC)c1`, the protection (pct of control) was inactive: 11.8%.

Consider `O=C(NCC1(N2CCOCC2)CCCCC1)c1cc(=O)[nH]c2ccccc12`, for which the protection (pct of control) was inactive: 22.4%.

Take `CN1CCN(CCOC(=O)C(O)(c2ccccc2)c2ccccc2)CC1`: the protection (pct of control) is inactive: 3.93%.

`N#CC1(Nc2ccccc2)CCN(CCc2ccccc2)CC1`: the protection (pct of control) was inactive: 6.01%.

With `O=C(OC1CN2CCC1CC2)C1c2ccccc2C=Cc2ccccc21` (stereo not drawn), the protection (pct of control) was inactive: 7.74%.

For the compound `N/C(=N\O)c1c(N)no[n+]1[O-]`, the protection (pct of control) is inactive: 19.5%.

On to `c1ccc(CN2CCC(Nc3ccccc3)CC2)cc1`, for which the protection (pct of control) is inactive: 11.6%.

For `CCN1CCC(Nc2cccc(F)c2)CC1`, the protection (pct of control) was inactive: 15.7%.

As to `Fc1ccccc1NC1CCN(Cc2ccccc2)CC1`, the protection (pct of control) is inactive: 12.6%.

For the compound `CCC(CO)(C(=O)OC1CN2CCC1CC2)c1ccccc1` (stereo not drawn), the protection (pct of control) was inactive: 6.04%.

Regarding `CCOc1ncccc1C(=O)NCC1(N2CCOCC2)CCCCC1`, the protection (pct of control) is inactive: 1.85%.
